Pooled drug test results. Numbers come from NIAID ChemDB, via PubChem.

All rows: whole-cell or culture tests; organism: HIV-1

ECn: concentration that inhibits the pathogen or its effect by n%. Conditions beyond the fields shown may differ between rows. Blank or dashed fields: not listed here.

structure	mutations	read by	setting	endpoint	cells	strain or isolate	value
O=C(O)c1cc2c([nH]c3ccccc32)c(-c2ccc(CO)o2)n1		syncytia		EC50	C8166	IIIB	2.37 µM
Cc1cccc(C)c1OCC(=O)N[C@@H](Cc1ccccc1)[C@H](O)CN(CC(C)C)S(=O)(=O)c1ccc(-c2ccnn2C)cc1		cytopathic effect / MTT		EC50	MT-4	LAI	1.259 µM
C#C[C@]1(COC(=O)CCCCCCCCCC)O[C@@H](n2cnc3c(N)nc(F)nc32)C[C@@H]1O	M184V		pseudotyped	EC50	U373-CD4-CXCR4	NL4-3	0.009 µM
CC(C)C1=C2[C@H]3CC[C@@H]4[C@@]5(C)CC[C@H](OC(=O)[C@H]6C[C@@H](C(=O)O)C6(C)C)C(C)(C)[C@@H]5CC[C@@]4(C)[C@]3(C)CC[C@@]2(CC(=O)NCC(C)(C)NC(=O)c2ncc[nH]2)CC1=O		p24 / ELISA		EC50	MT-2	92HT599	<1 µM
O=C(C1CCCCC1)N1CCC(c2cc(CCOc3cccc(C(F)(F)F)c3)[nH]n2)C1		luciferase		EC50	TZM-bl	BaL	2.3 µM
O=C(C(=O)N1CCN(C(=O)c2ccccc2)CC1)c1c[nH]c2c(-c3cnccn3)ccnc12		luciferase		EC50	HeLa		<1 µM
COc1cccc(OC)c1C1SCC(=O)N1c1ncccc1C		MTT		EC50	MT-2	IIIB	21.1 µM
CCCCc1cn(-c2cccc(S(=O)(=O)Nc3cccc4cnccc34)c2)nn1				EC50	PBMC		9.5 µM
CC(C)CN(C[C@@H](O)[C@H](Cc1ccccc1)NC(=O)O[C@H]1CO[C@H]2OCC[C@H]21)S(=O)(=O)c1ccc(-c2coc(-c3ccco3)n2)cc1	PR-L010F M046I M071V I084V	cytopathic effect / MTT		EC50	MT-4		0.1788 µM
[2H]C(CCN)(NC(=O)c1ccc(Cl)cc1)C(=O)NC[C@H](O)[C@@]12CC[C@]3(C)[C@H](CC[C@@H]4[C@@]5(C)CC[C@H](OC(=O)[C@H]6C[C@@H](C(=O)O)C6(C)C)C(C)(C)[C@@H]5CC[C@]43C)C1=C(C(C)C)C(=O)C2		p24 / ELISA		EC50	MT-2	92HT599	<1 µM
COc1ccc(C2SCC(=O)N2c2ccc(S(N)(=O)=O)cc2)cc1		MTT		EC50	MT-2	IIIB	≥182 µM
COc1ccc(CSc2nc(C(=O)c3ccc(Br)cc3)c(C)c(=O)[nH]2)cc1	K103N/Y181C	MTT		EC50	MT-4	IIIB	>201 µM
CC(=O)Nc1nc(-c2ccc(S(=O)(=O)N(CC(C)C)C[C@@H](O)[C@H](Cc3ccccc3)NC(=O)COc3c(C)cc(Br)cc3C)cc2)cs1		cytopathic effect / MTT		EC50	MT-4	LAI	63.1 µM
COc1cc([C@H]2O[C@@H](c3ccc(O)cc3)[C@H](C)[C@@H]2C)ccc1O		syncytia		EC50	C8166	IIIB	9.55 µg/mL
CNc1ccccc1S(=O)(=O)c1ccccc1[N+](=O)[O-]		cytopathic effect / XTT		EC50	CEM		0.082 µM
COc1ccc(OCCc2cc(C3CCN(C(=O)c4cnn(C)c4)C3)n[nH]2)cc1		luciferase		EC50	TZM-bl	BaL	>100 µM
Nc1nc(NC2CC2)c2ncn([C@H]3C=C[C@@H](CO)C3)c2n1				EC50	PBL(PHA STIM.) + PBL	IIIB	4 µM
Cc1cccn2c(C3SCCS3)cnc12		syncytia		EC50	CEM	IIIB	>4 µM
CC1=CC=CC2C1=NC(c1ccncc1)N2Cc1c(F)cccc1F				EC50	CEM		3.5 µM
CNC(=O)c1cc(Cl)nc2c(C(=O)C(=O)N3CCN(C(=O)c4ccccc4)C[C@H]3C)c[nH]c12		luciferase		EC50	HeLa		<1 µM
CC(C)C1=C2[C@H]3CC[C@@H]4[C@@]5(C)CC[C@H](OC(=O)[C@H]6C[C@@H](C(=O)O)C6(C)C)C(C)(C)[C@@H]5CC[C@@]4(C)[C@]3(C)CC[C@@]2(CCNC(=O)[C@@H](N)C(C)C)CC1=O		p24 / ELISA		EC50	MT-2	92HT599	<1 µM
Cn1cc(C(=O)N2CCC(c3cc(CCOc4ccccc4Cl)[nH]n3)C2)cn1		luciferase		EC50	TZM-bl	BaL	3.59 µM
Nc1c(C(=O)NCc2ccc(F)cc2F)c(=O)n(O)c2ncc(CCCCCCCCO)cc12	G140S/Q148H	luciferase / single cycle	pseudotyped	EC50	HOS		0.007 µM
C#C[C@]1(COC(=O)CCCCCCCCCCCC)O[C@@H](n2cnc3c(N)nc(F)nc32)C[C@@H]1O	M184V		pseudotyped	EC50	U373-CD4-CXCR4	NL4-3	0.012 µM
CC(=O)OCCOCn1c(-c2ccccc2)c(Br)c(Br)c1-c1ccccc1		cytopathic effect / MTT		EC50	MT-4		>23 µM
CC(C)CN(C[C@@H](O)[C@H](Cc1ccccc1)NC(=O)O[C@H]1CO[C@H]2OCC[C@H]21)S(=O)(=O)c1ccc(-c2csc(NCCCN(C)C)n2)cc1		cytopathic effect / MTT		EC50	MT-4	LAI	0.032 µM
C[C@H](Cn1cnc2c(N)ncnc21)OCP(=O)(O)O	HX/3AZT + 348			EC50	TZM-bl		18 µM
NCC(NC(=O)c1ccc(-c2cc(F)c(Cl)c(F)c2)[nH]1)c1nc(CO)cs1		p24 / ELISA		EC90	PBMC	NL4-3	>10 µM
Cc1cccn2c(C3OCCS3)cnc12		syncytia		EC50	CEM	IIIB	>20 µM
C#C[C@]1(COC(=O)C(C)(C)CCC)O[C@@H](n2cnc3c(N)nc(F)nc32)C[C@@H]1O	M184V		pseudotyped	EC50	U373-CD4-CXCR4	NL4-3	0.091 µM
Cc1ncc(-c2ccc(S(=O)(=O)N(CC(C)C)C[C@@H](O)[C@H](Cc3ccccc3)NC(=O)O[C@H]3CO[C@H]4OCC[C@H]43)cc2)[nH]1		cytopathic effect / MTT		EC50	MT-4	LAI	0.025 µM
CCOC(=O)c1c([N+](=O)[O-])c(-c2ccccc2)n(COCCO)c1C		cytopathic effect / MTT		EC50	MT-4		>300 µM
COc1cc([C@@H]2c3cc(O)c(OC)cc3C(=O)[C@@H](C)[C@H]2C)ccc1O				EC50	MT-4	IIIB	74.13 µg/mL
Cc1ccn2c(C3OCCS3)cnc2c1		syncytia		EC50	CEM	IIIB	>20 µM
CC(C)C1=C2[C@H]3CC[C@@H]4[C@@]5(C)CC[C@H](OC(=O)[C@H]6C[C@@H](C(=O)O)C6(C)C)C(C)(C)[C@@H]5CC[C@@]4(C)[C@]3(C)CC[C@@]2(CCNC(=O)C2CCC2)CC1=O		p24 / ELISA		EC50	MT-2	92HT599	<1 µM
S=c1nc2ccc(Cl)cc2c(NOCCN2CCOCC2)c2ccccc12		syncytia		EC50	H9	LAV	0.38 µM
OCCOCn1c(-c2ccccc2)c(Br)c(Br)c1-c1ccccc1		cytopathic effect / MTT		EC50	MT-4		>51 µM
FC(F)(F)[C@@]1(C#CC2CC2)OC(=S)Nc2ccc(Cl)cc21	NNRTI-resistant (RT 103N/181C)	MTT		EC50	MT-4	190A	0.006 µM
Cc1nc(-c2ccc(S(=O)(=O)N(CC(C)C)C[C@@H](O)[C@H](Cc3ccccc3)NC(=O)O[C@H]3CO[C@H]4OCC[C@H]43)cc2)co1	PR-L010F M046I M071V I084V	cytopathic effect / MTT		EC50	MT-4		0.168 µM
CC(C)C1=C2[C@H]3CC[C@@H]4[C@@]5(C)CC[C@H](OC(=O)[C@H]6C[C@@H](C(=O)O)C6(C)C)C(C)(C)[C@@H]5CC[C@@]4(C)[C@]3(C)CC[C@@]2([C@@H](O)CNCC(C)(C)NC(=O)c2ccccc2Cl)CC1=O		p24 / ELISA		EC50	MT-2	92HT599	<1 µM
COc1ccc(CSc2nc(C(=O)c3cccc(Br)c3)c(C)c(=O)[nH]2)cc1		MTT		EC50	MT-4	IIIB	>252 µM
CC(C)CN(C[C@@H](O)[C@H](Cc1ccccc1)NC(=O)O[C@H]1CO[C@H]2OCC[C@H]21)S(=O)(=O)c1ccc(-c2coc(-c3ccc(I)cc3)n2)cc1		cytopathic effect / MTT		EC50	MT-4	LAI	0.079 µM
C#C[C@]1(COC(=O)CCC)O[C@@H](n2cnc3c(N)nc(F)nc32)C[C@@H]1O	M184V		pseudotyped	EC50	U373-CD4-CXCR4	NL4-3	0.026 µM
O=C(C(=O)N1CCN(C(=O)c2ccccc2)CC1)c1c[nH]c2c(-c3ccccn3)ccnc12		luciferase		EC50	HeLa		<1 µM
O=C1CSC(c2c(Cl)cccc2Cl)N1CCc1ccccc1		MTT		EC50	MT-2	IIIB	228 µM
COc1ccccc1OCCc1cc(C2CCN(C(=O)c3cnn(C)c3)C2)n[nH]1		luciferase		EC50	TZM-bl	BaL	>100 µM
CC(=O)OCCOCn1c(-c2ccccc2)c(C#N)c([N+](=O)[O-])c1-c1ccccc1		cytopathic effect / MTT		EC50	MT-4		>300 µM
NC(=O)c1cnn([C@@H]2C=C(CO)C(O)C2O)c1				EC50	PBMC	LAI	24 µM
C[C@@H]1CN(C(=O)c2ccccc2)CCN1C(=O)C(=O)c1c[nH]c2nc(-c3ccccc3)ccc12		luciferase		EC50	HeLa		<10 µM
CC(C)C1=C2[C@H]3CC[C@@H]4[C@@]5(C)CC[C@H](OC(=O)[C@H]6C[C@@H](C(=O)O)C6(C)C)C(C)(C)[C@@H]5CC[C@@]4(C)[C@]3(C)CC[C@@]2([C@@H](O)CNCc2ccc(S(C)(=O)=O)cc2)CC1=O		p24 / ELISA		EC50	MT-2	92HT599	<1 µM
N#Cc1c(N)c(-c2ccccc2)n(COCCO)c1-c1ccccc1		cytopathic effect / MTT		EC50	MT-4		>300 µM